Compound potency records, mixed from different reports. Data source: NIAID ChemDB in PubChem.

All rows: growth or infection tests; organism: Plasmodium falciparum; measure: EC50

An empty or dashed field is not shown.

smiles | strain or isolate | mutations | method | cell line | value
CCc1nc(N)nc(N)c1-c1ccc(Cl)cc1 | Dd2 |  | LDH |  | 0.0151 µg/mL
CS[C@@]12C[C@H]3C(=O)C=C[C@H](O)[C@H]3N1C(=O)[C@]1(SC)C[C@H]3C(=O)C=C[C@H](O)[C@H]3N1C2=O | 3D7 |  | SYBR Green |  | 1.2 µM
C=C1C(=O)O[C@@H]2/C=C(\COC(C)=O)CC/C=C(/C=O)C[C@@H](O)[C@@H]12 | W2 |  | LDH / absorbance |  | 0.77 µg/mL
CCOc1ccc(Nc2cc(C)nc3ccc(OC)cc23)cc1 | 3D7 |  | flow cytometry | Erythrocytes | 1.72 µM
O=C(CC1NCCC[C@@H]1O)Cn1cnc2c(c1=O)CCCC2 | FCR3 |  | LDH / absorbance | Human A+ erythrocytes | 0.079 µg/mL
O=C(CCC(c1ccccc1)P(=O)(O)O)NO | K1 |  | absorbance | RBC | 3.87 µM
CCOC(=O)c1cn(Cc2ccc(F)cc2)c2ccc3nc(-c4ccc(F)cc4)c(-c4ccc(F)cc4)nc3c2c1=O | 3D7 |  | fluorescence |  | 7.59 µM
O=C(CC1NCCC[C@@H]1O)Cn1cnc2c(c1=O)CCCCC2 | FCR3 |  | LDH / absorbance | Human A+ erythrocytes | 0.0411 µg/mL
CC(C)c1ccc(C2OOC(c3ccc(C=O)cc3)OO2)cc1 | D6 |  | LDH |  | 6.99 µM
CCc1ccc(OCCCCN(C)Cc2ccccc2)cc1 | 3D7 |  | flow cytometry | Erythrocytes | >12.4 µM
C[C@H]1[C@H](C)CC[C@]2(C(=O)O)CC[C@]3(C)C(=CC[C@@H]4[C@@]5(C)CC[C@H](O)C(C)(C)[C@@H]5CC[C@]43C)[C@H]12 | D10 |  | LDH |  | >200 µM
C[C@@H]1CC[C@H]2[C@@H](C)C(=O)O[C@@H]3OC4(C)CC[C@@H]1[C@]32OO4 | FcB1 |  | broth dilution / radiometric | human red blood cells | 0.01 µM
CCN(CC)CCCC(C)Nc1ccnc2cc(Cl)ccc12 | FCR3 |  | LDH / absorbance | Human A+ erythrocytes | 0.0475 µg/mL
O=C(CN1C(=O)SC(=Cc2ccc(Cl)cc2Cl)C1=O)N1CCN(c2ccccc2)CC1 | W2 | Chloroquine-resistant | fluorescence |  | >10 µM
CS[C@]12C[C@H]3C(=O)C=C[C@H](O)[C@H]3N1C(=O)[C@@]1(SC)C[C@H]3C(=O)C=C[C@H](O)[C@H]3N1C2=O | 3D7 |  | SYBR Green |  | 4.4 µM
CCCCN(CCCC)CC(O)COc1ccc2ccccc2c1 | K1 |  | flow cytometry | Erythrocytes | 0.7575 µM
O[C@H](c1cc(C(F)(F)F)nc2c(C(F)(F)F)cccc12)[C@@H]1CCCCN1 |  |  | schizont maturation |  | 0.126 µM
O=c1c2ccccc2ncn1CC1(O)CC2NCCCC[C@@H]2O1 | FCR3 |  | LDH / absorbance | Human A+ erythrocytes | 0.123 µg/mL
C[C@@H]1CC[C@H]2[C@@H](C)C(=O)O[C@@H]3OC4(C)CC[C@@H]1[C@]32OO4 | GNF-Pf4492R-2 | GNF-Pf4492-resistant pfatp4 I203L/P990R | SYBR Green / fluorescence |  | 0.0181 µM
COc1ccc(Nc2cc(C)nc3c2ccc2ccccc23)cc1OC | K1 |  | flow cytometry | Erythrocytes | >10.4 µM
COc1ccc(C=C2SC(=O)N(CC(=O)N3CCN(c4ccccc4)CC3)C2=O)c(OC)c1 | W2 | Chloroquine-resistant | fluorescence |  | 4.65 µM
CS[C@@]12C[C@H]3C(=O)CC[C@H](O)[C@H]3N1C(=O)[C@]1(SC)C[C@H]3C(=O)CC[C@H](O)[C@H]3N1C2=O | 3D7 |  | SYBR Green |  | 2.5 µM
C=C(C)C1CC[C@]2(C(=O)O)CC[C@@]3(C)[C@]4(C)CC[C@H]5C(C)(C)[C@@H](O)CC[C@]5(C)[C@H]4CC[C@]3(C)[C@@H]12 | D10 |  | LDH |  | >200 µM
O=C(CN1C(=O)CSC1=O)N1CCN(c2ccccc2)CC1 | W2 | Chloroquine-resistant | fluorescence |  | >10 µM
O=C(C[C@H]1NCCC[C@@H]1O)Cn1cnc2cc(Br)c(Cl)cc2c1=O |  |  | luciferase | HepG2 | 0.0078 µM
CCCCCCc1ncn(CC(=O)CC2NCCC[C@@H]2O)c(=O)c1CCCCCC | FCR3 |  | LDH / absorbance | Human A+ erythrocytes | >1 µg/mL
COc1cc(OC)c(C=C2SC(=O)N(CC(=O)O)C2=O)c(OC)c1 | W2 | Chloroquine-resistant | fluorescence |  | >10 µM
CS[C@@]12C[C@H]3C=CC=C[C@H]3N1C(=O)[C@]1(SC)C[C@H]3C=CC=C[C@H]3N1C2=O | 3D7 |  | SYBR Green |  | >50 µM
CCN(CC)CCCC(C)Nc1ccnc2cc(Cl)ccc12 | FCM29 |  | broth dilution / radiometric | human red blood cells | 0.641 µM
O=C(CN1C(=O)SC(=Cc2cccc(OC(F)(F)F)c2)C1=O)N1CCN(c2ccccc2)CC1 | W2 | Chloroquine-resistant | fluorescence |  | >10 µM
CCCCC1(CC(=O)OCC)C(=O)N(c2ccccc2)N(c2ccccc2)C1=O | 3D7 |  | flow cytometry | Erythrocytes | >16.6 µM
CCc1ncn(CC(=O)CC2NCCC[C@@H]2O)c(=O)c1CC | FCR3 |  | LDH / absorbance | Human A+ erythrocytes | 0.197 µg/mL
COc1ccc(Cc2c3cc(OC)c(OC)cc3cc[n+]2C)cc1OC | K1 |  | flow cytometry | Erythrocytes | 2.06 µM
C[C@@H]1C[C@H](C)C[C@H](C)[C@@H](O)CC(=O)O[C@@H](C2CCC[C@H]2C(=O)O)C/C=C/C=C(/CN)[C@H](O)[C@@H](C)C1 | K1 |  | LDH | Erythrocyte | 0.00093 µg/mL
CCN(CC)CCOc1ccccc1C(=O)CCc1ccccc1 | 3D7 |  | flow cytometry | Erythrocytes | >18.8 µM
CCOC(=O)c1cn(CC(F)(F)F)c2ccc3nc(-c4ccc(F)cc4)c(-c4ccc(F)cc4)nc3c2c1=O | W2 |  | fluorescence |  | 3.92 µM
OC(COc1ccc(OCc2ccccc2)cc1)CN1CCCCC1 | 3D7 |  | flow cytometry | Erythrocytes | >15 µM
O=C1N2[C@@H]3C=CC=C[C@@H]3C[C@]23SS[C@]12C[C@H]1C=CC=C[C@H]1N2C3=O | 3D7 |  | SYBR Green |  | 3.6 µM

Repeating the final 4 entries:

{"smiles": "CCN(CC)CCOc1ccccc1C(=O)CCc1ccccc1", "strain or isolate": "3D7", "method": "flow cytometry", "cell line": "Erythrocytes", "value": ">18.8 µM"}
{"smiles": "CCOC(=O)c1cn(CC(F)(F)F)c2ccc3nc(-c4ccc(F)cc4)c(-c4ccc(F)cc4)nc3c2c1=O", "strain or isolate": "W2", "method": "fluorescence", "value": "3.92 µM"}
{"smiles": "OC(COc1ccc(OCc2ccccc2)cc1)CN1CCCCC1", "strain or isolate": "3D7", "method": "flow cytometry", "cell line": "Erythrocytes", "value": ">15 µM"}
{"smiles": "O=C1N2[C@@H]3C=CC=C[C@@H]3C[C@]23SS[C@]12C[C@H]1C=CC=C[C@H]1N2C3=O", "strain or isolate": "3D7", "method": "SYBR Green", "value": "3.6 µM"}

ECn: concentration that inhibits the pathogen or its effect by n%. Lines come from different laboratories, so protocols vary.